Source: patent US20260063625A1, “COMPOSITIONS FOR AND METHODS OF DETECTING FOOD TOXINS” (priority 2022, published 2026)

Experiment: Isothermal titration calorimetry (ITC) of STX into Sxph
Settings: 25° C., single binding site model

Row | Molecule | N (sites), stoichiometry [sites] | further results
1 | F561A: RcSxph mutant F561A (protein) MAPTFQTALFFTIISLSFAAPNAKQVRWCAISDLEQKKCNDLVGSCNVPDITLVCVLRSSTEDCMTAIKDGQADAMFLDSGEVYEASKDPYNLKPIIAEPYSSNRDLQKCLKERQQALAKKMIGHYIPQCDEKGNYQPQQCHGSTGHCWCVNAMGEKISGTNTPPGQTRATCERHELPKCLKERQVALGGDEKVLGRFVPQCDEKGNYEPQQFHGSTGYSWCVNAIGEEIAGTKTPPGKIPATCQKHDLVTTCHYAVAMVKKSSAFQFNQLKGKRSCHSGVSKTDGWKALVTVLVEKKLLSWDGPAKESIQRAMSKFFSVSCIPGATQTNLCKQCKGEEGKNCKNSHDEPYYGNYGAFRCLKEDMGDVAFLRSTALSDEHSEVYELLCPDNTRKPLNKYKECNLGTVPAGTVVTRKISDKTEDINNFLMEAQKRQCKLFSSAHGKDLMFDDSTLQLALLSSEVDAFLYLGVKLFHAMKALTGDAHLPSKNKVRWCTINKLEKMKCDDWSAVSGGAIACTEASCPKGCVKQILKGEADAVKLEVQYMYEALMCGLLPAVEEYHNKDDFGPCKTPGSPYTDAGTLRAVALVKKSNKDINWNNIKGKKSCHTGVGDIAGWVIPVSLIRRQNDNSDIDSFFGESCAPGSDTKSNLCKLCIGDPKNSAANTKCSLSDKEAYYGNQGAFRCLVEKGDVAFVPHTVVFENTDGKNPAVWAKNLKSEDFELLCLDGSRAPVSNYKSCKLSGIPPPAIVTREESISDVVRIVANQQSLYGRKGFEKDMFQLFSSNKGNNLLFNDNTQCLITFDRQPKDIMEDYFGKPYYTTVYGASRSAMSSELISACTIKHC | 1.07 ± 0.01 | 
2 | D794E: RcSxph mutant D794E (protein) MAPTFQTALFFTIISLSFAAPNAKQVRWCAISDLEQKKCNDLVGSCNVPDITLVCVLRSSTEDCMTAIKDGQADAMFLDSGEVYEASKDPYNLKPIIAEPYSSNRDLQKCLKERQQALAKKMIGHYIPQCDEKGNYQPQQCHGSTGHCWCVNAMGEKISGTNTPPGQTRATCERHELPKCLKERQVALGGDEKVLGRFVPQCDEKGNYEPQQFHGSTGYSWCVNAIGEEIAGTKTPPGKIPATCQKHDLVTTCHYAVAMVKKSSAFQFNQLKGKRSCHSGVSKTDGWKALVTVLVEKKLLSWDGPAKESIQRAMSKFFSVSCIPGATQTNLCKQCKGEEGKNCKNSHDEPYYGNYGAFRCLKEDMGDVAFLRSTALSDEHSEVYELLCPDNTRKPLNKYKECNLGTVPAGTVVTRKISDKTEDINNFLMEAQKRQCKLFSSAHGKDLMFDDSTLQLALLSSEVDAFLYLGVKLFHAMKALTGDAHLPSKNKVRWCTINKLEKMKCDDWSAVSGGAIACTEASCPKGCVKQILKGEADAVKLEVQYMYEALMCGLLPAVEEYHNKDDFGPCKTPGSPYTDFGTLRAVALVKKSNKDINWNNIKGKKSCHTGVGDIAGWVIPVSLIRRQNDNSDIDSFFGESCAPGSDTKSNLCKLCIGDPKNSAANTKCSLSDKEAYYGNQGAFRCLVEKGDVAFVPHTVVFENTDGKNPAVWAKNLKSEDFELLCLDGSRAPVSNYKSCKLSGIPPPAIVTREESISDVVRIVANQQSLYGRKGFEKDMFQLFSSNKGNNLLFNDNTQCLITFDRQPKDIMEEYFGKPYYTTVYGASRSAMSSELISACTIKHC | 0.99 ± 0.01 | 
3 | RcSxph: Saxiphilin of Rana (Lithobates) catesbeianus, American bullfrog, SEQ ID NO:1 (protein) MAPTFQTALFFTIISLSFAAPNAKQVRWCAISDLEQKKCNDLVGSCNVPDITLVCVLRSSTEDCMTAIKDGQADAMFLDSGEVYEASKDPYNLKPIIAEPYSSNRDLQKCLKERQQALAKKMIGHYIPQCDEKGNYQPQQCHGSTGHCWCVNAMGEKISGTNTPPGQTRATCERHELPKCLKERQVALGGDEKVLGRFVPQCDEKGNYEPQQFHGSTGYSWCVNAIGEEIAGTKTPPGKIPATCQKHDLVTTCHYAVAMVKKSSAFQFNQLKGKRSCHSGVSKTDGWKALVTVLVEKKLLSWDGPAKESIQRAMSKFFSVSCIPGATQTNLCKQCKGEEGKNCKNSHDEPYYGNYGAFRCLKEDMGDVAFLRSTALSDEHSEVYELLCPDNTRKPLNKYKECNLGTVPAGTVVTRKISDKTEDINNFLMEAQKRQCKLFSSAHGKDLMFDDSTLQLALLSSEVDAFLYLGVKLFHAMKALTGDAHLPSKNKVRWCTINKLEKMKCDDWSAVSGGAIACTEASCPKGCVKQILKGEADAVKLEVQYMYEALMCGLLPAVEEYHNKDDFGPCKTPGSPYTDFGTLRAVALVKKSNKDINWNNIKGKKSCHTGVGDIAGWVIPVSLIRRQNDNSDIDSFFGESCAPGSDTKSNLCKLCIGDPKNSAANTKCSLSDKEAYYGNQGAFRCLVEKGDVAFVPHTVVFENTDGKNPAVWAKNLKSEDFELLCLDGSRAPVSNYKSCKLSGIPPPAIVTREESISDVVRIVANQQSLYGRKGFEKDMFQLFSSNKGNNLLFNDNTQCLITFDRQPKDIMEDYFGKPYYTTVYGASRSAMSSELISACTIKHC |  | N (sites), stoichiometry (listed as RcSxph WT): 1.02 ± 0.01 sites
4 | P727A: RcSxph mutant P727A (protein) MAPTFQTALFFTIISLSFAAPNAKQVRWCAISDLEQKKCNDLVGSCNVPDITLVCVLRSSTEDCMTAIKDGQADAMFLDSGEVYEASKDPYNLKPIIAEPYSSNRDLQKCLKERQQALAKKMIGHYIPQCDEKGNYQPQQCHGSTGHCWCVNAMGEKISGTNTPPGQTRATCERHELPKCLKERQVALGGDEKVLGRFVPQCDEKGNYEPQQFHGSTGYSWCVNAIGEEIAGTKTPPGKIPATCQKHDLVTTCHYAVAMVKKSSAFQFNQLKGKRSCHSGVSKTDGWKALVTVLVEKKLLSWDGPAKESIQRAMSKFFSVSCIPGATQTNLCKQCKGEEGKNCKNSHDEPYYGNYGAFRCLKEDMGDVAFLRSTALSDEHSEVYELLCPDNTRKPLNKYKECNLGTVPAGTVVTRKISDKTEDINNFLMEAQKRQCKLFSSAHGKDLMFDDSTLQLALLSSEVDAFLYLGVKLFHAMKALTGDAHLPSKNKVRWCTINKLEKMKCDDWSAVSGGAIACTEASCPKGCVKQILKGEADAVKLEVQYMYEALMCGLLPAVEEYHNKDDFGPCKTPGSPYTDFGTLRAVALVKKSNKDINWNNIKGKKSCHTGVGDIAGWVIPVSLIRRQNDNSDIDSFFGESCAPGSDTKSNLCKLCIGDPKNSAANTKCSLSDKEAYYGNQGAFRCLVEKGDVAFVPHTVVFENTDGKNPAVWAKNLKSEDFELLCLDGSRAPVSNYKSCKLSGIPAPAIVTREESISDVVRIVANQQSLYGRKGFEKDMFQLFSSNKGNNLLFNDNTQCLITFDRQPKDIMEDYFGKPYYTTVYGASRSAMSSELISACTIKHC | 0.97 ± 0.03 | 
5 | E540D: RcSxph mutant E540D (protein) MAPTFQTALFFTIISLSFAAPNAKQVRWCAISDLEQKKCNDLVGSCNVPDITLVCVLRSSTEDCMTAIKDGQADAMFLDSGEVYEASKDPYNLKPIIAEPYSSNRDLQKCLKERQQALAKKMIGHYIPQCDEKGNYQPQQCHGSTGHCWCVNAMGEKISGTNTPPGQTRATCERHELPKCLKERQVALGGDEKVLGRFVPQCDEKGNYEPQQFHGSTGYSWCVNAIGEEIAGTKTPPGKIPATCQKHDLVTTCHYAVAMVKKSSAFQFNQLKGKRSCHSGVSKTDGWKALVTVLVEKKLLSWDGPAKESIQRAMSKFFSVSCIPGATQTNLCKQCKGEEGKNCKNSHDEPYYGNYGAFRCLKEDMGDVAFLRSTALSDEHSEVYELLCPDNTRKPLNKYKECNLGTVPAGTVVTRKISDKTEDINNFLMEAQKRQCKLFSSAHGKDLMFDDSTLQLALLSSEVDAFLYLGVKLFHAMKALTGDAHLPSKNKVRWCTINKLEKMKCDDWSAVSGGAIACTEASCPKGCVKQILKGEADAVKLEVQYMYEALMCGLLPAVDEYHNKDDFGPCKTPGSPYTDFGTLRAVALVKKSNKDINWNNIKGKKSCHTGVGDIAGWVIPVSLIRRQNDNSDIDSFFGESCAPGSDTKSNLCKLCIGDPKNSAANTKCSLSDKEAYYGNQGAFRCLVEKGDVAFVPHTVVFENTDGKNPAVWAKNLKSEDFELLCLDGSRAPVSNYKSCKLSGIPPPAIVTREESISDVVRIVANQQSLYGRKGFEKDMFQLFSSNKGNNLLFNDNTQCLITFDRQPKDIMEDYFGKPYYTTVYGASRSAMSSELISACTIKHC | 0.98 ± 0.02 | 
6 | NpSxph: Saxiphilin of Nanorana parkeri, High Himalaya frog, SEQ ID NO:2 (protein, listed as Nanorana parkeri) MALTFHTALYFTIVGLSFAASDARHVQWCTISHLEQKKCNDLVGSCNVPDITLACVYRSSTENCMAAIKDGQADAMFLDSGDVYKASLDHYNLKPIIAEPYSLHRELTKCLKHRQESLGGDKMVKGRYIPQCDEKGNYHPVQCHASTGYCWCVNANGEKIEGTNTTPVQTPPTCPSQVLTKCLKERQEALGGKRIAIGRYIPQCDEQGNYRPMQCHGSTGYCWCVNAIGEKIEGTNTPPGNTQPTCQSHDWDTCHYAVAVVKNSSTFQFGQLKGKRSCHSGLSKTDGWNAPVNVFVEKKLLPWDGLAKGSIERAVSKFFSASCIPGATETNLCKQCIGEEEKKCKSSHDEPYYGDHGAFRCLQEDKGDVAFLKNTALPDEHSGVYELLCPDNTRKPLNKYKECNLGKVPADAVVTRKAGDKTKDINDFLLEAQKKKCKLFGSPHGKDLMFDDSTTHLAPLPSEIDAFFFLGVKWYNAMKALTEDVKLPSKNKVRWCTINKPEMMKCKDWAAVSGGAIACTEASCPEHCVKQILKGEADAVTLDVQYMYMALMCGLLPAVEEYPNKDDFHPCQIPGSTIKDFGTKRAVALVKKSNKDIKWNNLKGKKSCHTHVGDIPGWVIPAGLISNQNDNIDIESFFGESCAPGSDTNSKLCKLCIGDPENPKASTRCSLSDKEAYYGNEGAFRCLVEKGDVAFVPHTVVFANTDGKNPAEWAKDLKSEDFEILCLDGSRAPVTNYRGCNLSGLPPRAIVTREESVSDVVRILINQQSLYGRNGFEKDMFQMFSSAKGQNLLFNDETQCLIEFDRQPKDIMEDYFGVRYYTAVYSASRSAVPSELIPACTFKHC |  | N (sites), stoichiometry (listed as NpSxph WT): 0.92 ± 0.02 sites
